Measured values as given in patent US20230226072A1 (priority 2020, published 2023).

Tested on: SARS-CoV-2 virus
Conditions: 2.5 mg/I, incubated with virus […]

CN(C)c1ccc2nc3ccc(=[N+](C)C)cc-3sc2c1.[Cl-] [methylene blue, [7-(dimethylamino)phenothiazin-3-ylidene]-dimethylazanium; chloride]
viricidal effect (virus titer): total viricidal effect
